Source: patent US20200262877A1, “ION CHANNEL-BINDING PEPTIDES AND METHODS OF USE THEREOF” (priority 2017, published 2020)

B1: SEQ ID NO: 18 (peptide)
peptide: GSNCAGYMRECKEKLCCSGYVCSSRWKWCVLPAPWRR
modifications: not checked
B2: SEQ ID NO: 30 (peptide)
peptide: GSQVSTNKKCSNTSQCYKTCEKVVGVAAGKCMNGKCICYP
modifications: not checked
B3: SEQ ID NO: 19 (peptide)
peptide: GSQFTDVKCTGSKQCWPVCKQMFGKPNGKCMNGKCRCYS
modifications: not checked
B4: SEQ ID NO: 23 (peptide)
peptide: GSCIGEGVPCDENDPRCCFGLVCLKPTLHGIWYKSYYCYKK
modifications: not checked
B5: SEQ ID NO: 34 (peptide)
peptide: GGYSRCQLQGFNCVVRSYGLPTIPCCRGLTCRSYFPGSTYGRCQRY
modifications: not checked
B6: SEQ ID NO: 20 (peptide)
peptide: GSQIDTNVKCSGSSKCVKICIDRYNTRGAKCINGRCTCYP
modifications: not checked
B7: SEQ ID NO: 13 (peptide)
peptide: GSQKILSNRCNNSSECIPHCIRIFGTRAAKCINRKCYCYP
modifications: not checked
B8: SEQ ID NO: 36 (peptide)
peptide: GSAQEPVKGPVSTKPGSCPIILIRCAMLNPPNRCLKDTDCPGIKKCCEGSCGMACFVPQ
modifications: not checked

These binders were tested against 5HT3a (assay: cell-based or functional assay).
For B1, the % activity at 0.2 µM was 95% and the % activity at 20 µM was 79%.
In the case of B2, the % activity at 0.2 µM is reported as 71%.
Work on B3 yielded a % activity at 20 µM of 69%.
For B4, the % activity at 20 µM was 101%.
B5 gave a % activity at 0.2 µM of 114%.

What follows are binders tested against Cav2.1 (assay: cell-based or functional assay).
For B1, the % activity at 0.2 µM was 97% and the % activity at 20 µM was 98%.
B2 gave a % activity at 0.2 µM of 111%.
B3 showed a % activity at 0.2 µM of 106% and a % activity at 20 µM of 109%.
In the case of B6, the % activity at 0.2 µM is reported as 100%.
For B7, the % activity at 0.2 µM was 109% and the % activity at 20 µM was 100%.

The binders below were run against Cav2.2 (assay: cell-based or functional assay).
Binder B1 has a % activity at 0.2 µM of 132% and a % activity at 20 µM of 124%.
B2 was tested, and the % activity at 0.2 µM was 96%.
In the case of B8, the % activity at 0.2 µM is reported as 114% and the % activity at 20 µM is reported as 87%.
Binder B6 has a % activity at 0.2 µM of 110%.
For B4, the % activity at 0.2 µM was 110%.
Binder B5 has a % activity at 0.2 µM of 130%.
For B7, the % activity at 0.2 µM was 121% and the % activity at 20 µM was 100%.

The binders below were run against GABA (assay: cell-based or functional assay).
Work on B1 yielded a % activity at 0.2 µM of 113% and a % activity at 20 µM of 106%.
B2 gave a % activity at 0.2 µM of 102% and a % activity at 20 µM of 114%.
B8 showed a % activity at 0.2 µM of 118%.
Work on B3 yielded a % activity at 0.2 µM of 93%.
B5 gave a % activity at 20 µM of 117%.
B7 showed a % activity at 0.2 µM of 107% and a % activity at 20 µM of 93%.

The binders below were run against Kir2.1 (assay: cell-based or functional assay).
Binder B1 has a % activity at 0.2 µM of 104% and a % activity at 20 µM of 93%.
Binder B2 has a % activity at 0.2 µM of 102% and a % activity at 20 µM of 93%.
In the case of B3, the % activity at 20 µM is reported as 93%.
B6 was tested, and the % activity at 0.2 µM was 89%.
For B5, the % activity at 20 µM was 50%.
For B7, the % activity at 20 µM was 98%.

What follows are binders tested against Kv1.1 (assay: cell-based or functional assay).
B1 showed a % activity at 0.2 µM of 98% and a % activity at 20 µM of 78%.
B2 was tested, and the % activity at 20 µM was 102%.
With B3 the % activity at 0.2 µM was 100% and the % activity at 20 µM was 44%.
B7 gave a % activity at 0.2 µM of 107% and a % activity at 20 µM of 79%.

The binders below were run against Kv1.2 (assay: cell-based or functional assay).
Binder B1 has a % activity at 0.2 µM of 67% and a % activity at 20 µM of 30%.
B2 showed a % activity at 0.2 µM of 110% and a % activity at 20 µM of 92%.
In the case of B8, the % activity at 20 µM is reported as 87%.
With B3 the % activity at 0.2 µM was 41% and the % activity at 20 µM was 37%.
B6 gave a % activity at 20 µM of 74%.
B5 gave a % activity at 20 µM of 51%.
B7 was tested, and the % activity at 0.2 µM was 88% and the % activity at 20 µM was 40%.

These binders were tested against Kv1.3 (assay: cell-based or functional assay).
With B1 the % activity at 0.2 µM was 87% and the % activity at 20 µM was 7%.
B2 gave a % activity at 0.2 µM of 89% and a % activity at 20 µM of 71%.
For B3, the % activity at 0.2 µM was 4% and the % activity at 20 µM was -1%.
With B6 the % activity at 20 µM was 7%.
B7 was tested, and the % activity at 0.2 µM was 68% and the % activity at 20 µM was 64%.

Each binder was assayed against Kv2.1 (assay: cell-based or functional assay).
In the case of B1, the % activity at 0.2 µM is reported as 93% and the % activity at 20 µM is reported as 65%.
B2 showed a % activity at 0.2 µM of 107%.
In the case of B7, the % activity at 0.2 µM is reported as 104% and the % activity at 20 µM is reported as 116%.

What follows are binders tested against NR2A (assay: cell-based or functional assay).
Work on B1 yielded a % activity at 0.2 µM of 98% and a % activity at 20 µM of 79%.
B2 showed a % activity at 0.2 µM of 111%.
B8 was tested, and the % activity at 0.2 µM was 115%.
B3 was tested, and the % activity at 0.2 µM was 90%.
Work on B7 yielded a % activity at 0.2 µM of 94% and a % activity at 20 µM of 108%.

The binders below were run against NR2B (assay: cell-based or functional assay).
B1 was tested, and the % activity at 0.2 µM was 107% and the % activity at 20 µM was 78%.
In the case of B2, the % activity at 0.2 µM is reported as 92% and the % activity at 20 µM is reported as 88%.
In the case of B3, the % activity at 0.2 µM is reported as 117% and the % activity at 20 µM is reported as 130%.
For B5, the % activity at 20 µM was 66%.
Binder B7 has a % activity at 0.2 µM of 122% and a % activity at 20 µM of 117%.

These binders were tested against TRPA1 (assay: cell-based or functional assay).
B1 was tested, and the % activity at 0.2 µM was 130% and the % activity at 20 µM was 89%.
Binder B2 has a % activity at 0.2 µM of 118% and a % activity at 20 µM of 111%.
B3 gave a % activity at 0.2 µM of 126% and a % activity at 20 µM of 109%.
B4 showed a % activity at 0.2 µM of 126%.
B7 gave a % activity at 0.2 µM of 129%.

These binders were tested against TRPV1 (assay: cell-based or functional assay).
Binder B1 has a % activity at 0.2 µM of 93% and a % activity at 20 µM of 61%.
For B2, the % activity at 0.2 µM was 107% and the % activity at 20 µM was 84%.
In the case of B8, the % activity at 20 µM is reported as 69%.
B3 gave a % activity at 20 µM of 90%.
Work on B4 yielded a % activity at 0.2 µM of 117%.
B5 was tested, and the % activity at 20 µM was 71%.
Work on B7 yielded a % activity at 20 µM of 88%.

Target: T1, hERG, Q12809
T1 chain: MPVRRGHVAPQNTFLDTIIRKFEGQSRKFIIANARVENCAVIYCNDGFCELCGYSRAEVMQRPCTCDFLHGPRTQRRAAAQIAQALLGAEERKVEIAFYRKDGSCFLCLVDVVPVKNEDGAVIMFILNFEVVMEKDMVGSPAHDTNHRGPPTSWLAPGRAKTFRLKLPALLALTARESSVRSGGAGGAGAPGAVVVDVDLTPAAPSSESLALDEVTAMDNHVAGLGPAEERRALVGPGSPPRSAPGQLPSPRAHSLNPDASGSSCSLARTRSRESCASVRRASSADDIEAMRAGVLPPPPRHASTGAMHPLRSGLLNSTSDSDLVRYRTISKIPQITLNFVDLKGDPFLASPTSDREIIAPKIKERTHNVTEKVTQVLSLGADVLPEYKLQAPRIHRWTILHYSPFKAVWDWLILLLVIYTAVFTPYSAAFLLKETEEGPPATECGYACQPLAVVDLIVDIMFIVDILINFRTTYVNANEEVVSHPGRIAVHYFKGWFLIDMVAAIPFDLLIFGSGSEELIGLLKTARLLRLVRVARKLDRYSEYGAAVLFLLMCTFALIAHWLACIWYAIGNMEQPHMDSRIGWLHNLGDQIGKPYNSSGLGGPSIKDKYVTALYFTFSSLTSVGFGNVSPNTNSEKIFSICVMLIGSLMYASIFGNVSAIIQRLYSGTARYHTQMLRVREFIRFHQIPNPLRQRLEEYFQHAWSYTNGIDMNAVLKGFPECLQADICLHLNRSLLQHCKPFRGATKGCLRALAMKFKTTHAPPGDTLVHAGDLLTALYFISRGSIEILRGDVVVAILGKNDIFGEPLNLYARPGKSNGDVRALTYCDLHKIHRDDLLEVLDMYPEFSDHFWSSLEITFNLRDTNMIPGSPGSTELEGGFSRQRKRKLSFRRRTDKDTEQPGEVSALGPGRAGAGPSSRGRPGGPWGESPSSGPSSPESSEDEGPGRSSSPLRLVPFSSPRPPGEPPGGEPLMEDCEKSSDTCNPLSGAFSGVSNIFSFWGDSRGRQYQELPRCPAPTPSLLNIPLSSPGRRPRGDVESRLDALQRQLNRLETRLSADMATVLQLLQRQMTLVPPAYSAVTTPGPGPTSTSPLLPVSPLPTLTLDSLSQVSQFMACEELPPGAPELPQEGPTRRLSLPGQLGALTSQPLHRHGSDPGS
Experiment: cell-based or functional assay
Work on B1 yielded a % activity at 0.2 µM of 98% and a % activity at 20 µM of 62%.
B6 gave a % activity at 20 µM of 87%.
B5 was tested, and the % activity at 20 µM was 66%.
B7 showed a % activity at 0.2 µM of 89% and a % activity at 20 µM of 67%.

Each binder was assayed against α3β4 nicotinic receptor (assay: cell-based or functional assay).
B1 was tested, and the % activity at 0.2 µM was 110% and the % activity at 20 µM was 89%.
B8 gave a % activity at 20 µM of 87%.
In the case of B7, the % activity at 20 µM is reported as 83%.

The binders below were run against α4β2 nicotinic receptor (assay: cell-based or functional assay).
B1 was tested, and the % activity at 0.2 µM was 109% and the % activity at 20 µM was 92%.
B2 gave a % activity at 0.2 µM of 89% and a % activity at 20 µM of 92%.
B8 was tested, and the % activity at 0.2 µM was 62% and the % activity at 20 µM was 57%.
Work on B3 yielded a % activity at 20 µM of 93%.
For B6, the % activity at 0.2 µM was 113%.
Binder B4 has a % activity at 20 µM of 79%.
B5 showed a % activity at 20 µM of 51%.
Binder B7 has a % activity at 20 µM of 80%.
